How the values were obtained:
[1] = mildly acidic pH; cited from earlier work
[2] = Drug stability in fibers stored at room temperature; format: physicochemical; settings: PLLA/PEO meshes, at least five months
TZM-bl cells = test: Cytotoxicity in TZM-bl cells (CellTiter Blue); format: cell-based; settings: compared with media controls
[3] = Maraviroc solubility following release from fibers; format: physicochemical; settings: pH 4.0 citrate buffer, absence of polymer or surfactant

What does the source list for maraviroc [MVC]?
Solubility [1]: > 1 mg/mL; Initially-loaded drug detected in stored fiber meshes [2]: 0.95%; Toxicity to TZM-bL cells (TZM-bl cells): nontoxic; Solubility limit of maraviroc [3]: 21.3 ± 6.4 mg/mL

Reference: US9393216B2, “Vaginal matrices: nanofibers for contraception and prevention of HIV infection” (priority 2012, dated 2016)
